PubChem BioAssay AID504761, Drosophila RNAi Screening Center | 2011
Assay: 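Fly genes whose silencing reduces dengue virus type 2 infection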 (primary screen). Cell system: D.Mel-2 cells from Drosophila. Knock-down reagent: long dsRNA against Drosophila genes. Challenge: infection with dengue virus type 2; dose and infection time not stated. Measurement: 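Cells stained for dengue envelope protein and imaged; percent of infected cells per well on duplicate plates, ranked by infection, with stained nuclei counted for cell number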. Direction: infection score: higher = more virus-infected cells; cell count: higher = more cells in the well. Hit rule: 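Very low infection ranking in both replicate wells (chance probability at most 0.065), then a retest showing infection dropped 1.5-fold or more at p below 0.05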. Meaning of the calls: active = confirmed: knock-down lowers infection; inactive = not picked or not confirmed.
The screen tested about 22,000 reagents; below is an unselected part of those that have a named target and a result. Over the whole deposit, 116 (0.52%) were called active. 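Calls depend on retest data that are not deposited; infection was ranked per plate without normalising between plates; the unit of the infection score is not given.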 The raw values are shown without normalisation. Not given: the amount of reagent, the time to read-out.

predicted target	dsRNA	infection score, replicate 1	infection score, replicate 2	cell count, replicate 1	cell count, replicate 2	activity call
CG18476	DRSC15281	6.87	5.8	6633	6566	inactive
RpS21 (Ribosomal protein S21)	DRSC00833	3.11	5.89	6213	5844	inactive
RpS21 (Ribosomal protein S21)	DRSC28234	4.1	14.5	634	1603	inactive
C901	DRSC19351	0.55	1.21	6499	6593	inactive
C901	DRSC28397	1.27	0.38	395	262	inactive
MED7 (Mediator complex subunit 7)	DRSC16059	7.49	14.6	5312	5676	inactive
MED7 (Mediator complex subunit 7)	DRSC29232	21.5	31.8	3974	4829	inactive
CG31900 (retired record)	DRSC21835	4.86	2.6	6381	6501	inactive
CG34433	DRSC15077	10.3	20.3	5549	5432	inactive
CG11398	DRSC18625	0.58	1.75	6393	6276	inactive
glob2 (globin 2)	DRSC12560	8.65	5.61	5712	6224	inactive
CG34324	DRSC23241	1.41	2.47	6681	6895	inactive
Aos1 (Activator of SUMO 1)	DRSC14113	6.49	13.2	1788	1512	inactive
Aos1 (Activator of SUMO 1)	DRSC29634	14.8	23.6	4417	4211	inactive
Vm32E (Vitelline membrane 32E)	DRSC03474		2.05	482	831	inactive
Vm32E (Vitelline membrane 32E)	DRSC25156	10.5	4.06	5348	5984	inactive
Tret1-1 (Trehalose transporter 1-1)	DRSC07046	9.24	15.4	6212	7250	inactive
Tret1-1 (Trehalose transporter 1-1)	DRSC07048	3.84	16.3	6610	4638	inactive
Tret1-1 (Trehalose transporter 1-1)	DRSC25701	12	4.68	6296	5916	inactive
CG14339	DRSC00369	25.6	5.64	6092	6348	inactive
CG14339	DRSC26560	8.47	3.45	6290	5539	inactive
gsb-n (gooseberry-neuro)	DRSC04021	1.41	0.3	6099	5601	inactive
gsb-n (gooseberry-neuro)	DRSC04693	36	12.4	5223	4913	inactive

A stretch of the results above:
predicted target	dsRNA	infection score, replicate 1	infection score, replicate 2	cell count, replicate 1	cell count, replicate 2	activity call
Aos1 (Activator of SUMO 1)	DRSC29634	14.8	23.6	4417	4211	inactive
Vm32E (Vitelline membrane 32E)	DRSC03474		2.05	482	831	inactive
Vm32E (Vitelline membrane 32E)	DRSC25156	10.5	4.06	5348	5984	inactive
Tret1-1 (Trehalose transporter 1-1)	DRSC07046	9.24	15.4	6212	7250	inactive
